This note sets out measurements from patent US20040091855A1, “Method for production of antivirals by use of HIV-derived HR1 peptides, and trimers formed therefrom” (priority 2002, published 2004).

Series [1] has as its system HR2 peptide (SEQ ID NO:33). The experiment in a line: Fluorescence polarization assay of binding to labeled HR2 peptide. Also on record: species or system HIV-1. The conditions noted are these: ability to complex with HR2 peptide denoted as yes. The source says: These include a protein chip assay (using Biacore analysis) in which surface plasmon resonance is used to detect the binding, and kinetics thereof, between a synthetic peptide and an HR2 peptide; and a fluorescence polarization assay. In the fluorescence polarization assay, a detectable moiety comprising a fluorescent dye (e.g., rhodamine and/or fluorescein) was used to label HR2 peptide, and the assay was then allowed to proceed under sufficient conditions and for a sufficient period of time for labeled peptide to bind to HR1 peptide, or synthetic peptide (or trimer formed therefrom).

The nature of series [2]: Sedimentation equilibrium experiments (oligomerization state). Type of series: physicochemical. The note with it: in solution; peptide 1 μM to 100 μM. Here is the method: Oligomerization state was assessed by using methods standard in the art for performing sedimentation equilibrium experiments and for analysis of the resultant data. In that regard, sedimentation equilibrium experiments were performed over a concentration range of synthetic peptide (1 μM to 100 μM) as follows. Briefly, six-channel cells (12 mm optical path length) were used with an An-60 Ti rotor operated at 13,500 rpm, 18,000 rpm, 22,000 rpm, and 35,000 rpm) in an analytical ultracentrifuge at 4C. The cell radii were scanned using 0.001 cm steps with 10 averages/scan at 3 different wavelengths (235 nm, 240 nm, 280 nm). Data obtained with solutions containing synthetic peptide was analyzed using a single species model to determine a weight-averaged molecular weight (MW). Diagnostic plots of MW/ MW0 vs. rpm/rpm0 and MW vs. radial concentration were used to test for sample homogeneity. When systemic residuals or a MW higher than monomer molecular weight indicated the presence of self-association, associative models were investigated. The suitability of a model (goodness of fit) was judged by the trends observed in the residuals.

Series [3] is described as follows: Helicity by circular dichroism. Type of series: physicochemical. The note with it: at 10 μM, 25° C. Here is the method: (§1) Helicity was assessed by circular dichroism (“CD”) as follows. Briefly, CD spectra were obtained using a spectrometer equipped with a thermoelectric temperature controller. The spectra was obtained at 25° C. with 0.5 nanometer (nm) steps from 200 to 260 nm, with a 1.5 nm bandwith, and a typical averaging time of 4 seconds/step. After the cell/buffer blank was subtracted, spectra were smoothed using a third-order least-squares polynomial fit with a conservative window size to give random residuals. Raw ellipticity values were converted to mean residue ellipticity using standard methods, and plotted was the wavelength (from 200 to 260 nm) versus [θ]×10^−3 (degrees cm^2/dmol). Percent helicity values were then calculated using standard methods. Assessment of thermal stability was performed by monitoring the change in CD signal at 222 nm as temperature was raised in 2° C. steps, with 1 minute equilibration times. The thermal stability for each sample (e.g., synthetic peptide) was represented by the transition temperature (Tm) determined by the derivative method.

Another series concerns HIV IIIB. Type of series: cell-based, HIV-1. The conditions noted are these: IIIB.
A short description of series [4]: Thermal stability (Tm) by CD signal at 222 nm. Type of series: physicochemical. The conditions noted are these: at 10 μM. Here is the method:
as §1

For `CC[C@H](C)[C@H](NC(=O)CNC(=O)[C@H](CO)NC(=O)[C@H](CC(C)C)NC(=O)[C@H](CC(C)C)NC(=O)[C@H](CCC(N)=O)NC(=O)[C@H](CCCNC(=N)N)NC(=O)[C@H](C)NC(=O)[C@H](CCC(N)=O)NC(C)=O)C(=O)N[C@H](C(=O)N[C@@H](CCC(N)=O)C(=O)N[C@@H](CCC(N)=O)C(=O)N[C@@H](CCC(N)=O)C(=O)N[C@@H](CC(N)=O)C(=O)N[C@@H](CC(N)=O)C(=O)N[C@@H](CC(C)C)C(=O)N[C@@H](CC(C)C)C(=O)N[C@@H](CCCNC(=N)N)C(=O)N[C@@H](C)C(=O)N[C@H](C(=O)N[C@@H](CCC(=O)O)C(=O)N[C@@H](C)C(=O)N[C@H](C(=O)N[C@@H](CCC(N)=O)C(=O)N[C@@H](Cc1c[nH]cn1)C(=O)N[C@@H](C)C(=O)N[C@H](C(=O)N[C@@H](CCC(N)=O)C(=O)N[C@@H](C)C(=O)N[C@@H](CC(C)C)C(=O)N[C@H](C(=O)N[C@@H](Cc1c[nH]c2ccccc12)C(=O)NCC(=O)N[C@H](C(=O)N[C@@H](CCCCN)C(=O)N[C@@H](CCC(N)=O)C(=O)N[C@@H](CC(C)C)C(=O)N[C@@H](CCC(N)=O)C(=O)N[C@@H](C)C(=O)N[C@@H](CCCNC(=N)N)C(=O)N[C@H](C(=O)N[C@@H](CC(C)C)C(=O)N[C@@H](C)C(=O)N[C@@H](CC(C)C)C(=O)N[C@@H](CCC(=O)O)C(=O)N[C@@H](CCCNC(=N)N)C(=O)N[C@@H](Cc1ccc(O)cc1)C(=O)N[C@H](C(=O)N[C@@H](CCCCN)C(=O)N[C@@H](CC(=O)O)C(=O)N[C@@H](CCC(N)=O)C(N)=O)[C@@H](C)CC)C(C)C)C(C)C)C(C)C)C(C)C)[C@@H](C)O)[C@@H](C)CC)C(C)C` [SEQ ID NO:38], the HR2 peptide binding result in series [1] is given as “Yes”. In addition, the Oligomerization result in series [2] is “Trimer*”. For the same compound, the Helicity in series [3] is reported as 79%. Further, in the series on HIV IIIB, the “Antiviral activity against HIV IIIB IC50” value is 0.18 µg/mL and the “Antiviral activity against HIV IIIB IC90” value amounted to 0.88 µg/mL. The “Stability Tm” value in series [4] is “Tm 90 °C”.
For `CC[C@H](C)[C@H](NC(=O)CNC(=O)[C@H](Cc1c[nH]c2ccccc12)NC(=O)[C@@H](NC(=O)[C@@H](NC(=O)[C@H](C)NC(=O)[C@H](CCC(N)=O)NC(=O)[C@H](CC(C)C)NC(=O)[C@H](C)NC(=O)[C@H](Cc1c[nH]cn1)NC(=O)[C@H](CCC(N)=O)NC(=O)[C@H](CCC(N)=O)NC(=O)[C@H](C)NC(=O)[C@H](CCC(=O)O)NC(=O)[C@H](CC(C)C)NC(=O)[C@H](C)NC(=O)[C@H](CCCNC(=N)N)NC(=O)[C@H](CC(C)C)NC(=O)[C@@H](NC(=O)[C@H](CC(N)=O)NC(=O)[C@H](CC(N)=O)NC(=O)[C@H](CCC(N)=O)NC(=O)[C@H](CCC(N)=O)NC(=O)[C@H](CCC(N)=O)NC(=O)[C@@H](NC(=O)[C@H](CC(C)C)NC(=O)CNC(=O)[C@H](CO)NC(=O)[C@@H](NC(=O)[C@H](CC(C)C)NC(=O)[C@H](CCC(N)=O)NC(=O)[C@H](CCCNC(=N)N)NC(=O)[C@H](C)NC(=O)[C@H](CCC(N)=O)NC(C)=O)C(C)C)C(C)C)[C@@H](C)CC)[C@@H](C)O)C(C)C)C(=O)N[C@@H](CCCCN)C(=O)N[C@@H](CCC(N)=O)C(=O)N[C@@H](CC(C)C)C(=O)N[C@@H](CCC(N)=O)C(=O)N[C@@H](C)C(=O)N[C@@H](CCCNC(=N)N)C(=O)N[C@H](C(=O)N[C@@H](CC(C)C)C(=O)N[C@@H](C)C(=O)N[C@@H](CC(C)C)C(=O)N[C@@H](CCC(=O)O)C(=O)N[C@@H](CCCNC(=N)N)C(=O)N[C@@H](Cc1ccc(O)cc1)C(=O)N[C@H](C(=O)N[C@@H](CCCCN)C(=O)N[C@@H](CC(=O)O)C(=O)N[C@@H](CCC(N)=O)C(N)=O)[C@@H](C)CC)C(C)C` [SEQ ID NO:39], in series [1], the HR2 peptide binding entry is listed as “Yes”. For the same compound, in series [2], the Oligomerization entry is recorded as “Trimer*”. Further, the Helicity in series [3] amounted to 63%. In the series with HIV IIIB, the “Antiviral activity against HIV IIIB IC50” value turned out to be 0.26 µg/mL and the “Antiviral activity against HIV IIIB IC90” value turned out to be 1.20 µg/mL. In addition, the “Stability Tm” value in series [4] is “Tm 68 °C”.
On to `CC[C@H](C)[C@H](NC(=O)CNC(=O)[C@H](Cc1c[nH]c2ccccc12)NC(=O)[C@@H](NC(=O)[C@@H](NC(=O)[C@H](C)NC(=O)[C@H](CCC(N)=O)NC(=O)[C@H](CC(C)C)NC(=O)[C@H](C)NC(=O)[C@H](Cc1c[nH]cn1)NC(=O)[C@H](CCC(N)=O)NC(=O)[C@H](CCC(N)=O)NC(=O)[C@H](C)NC(=O)[C@H](CCC(=O)O)NC(=O)[C@@H](NC(=O)[C@H](C)NC(=O)[C@H](CCCNC(=N)N)NC(=O)[C@H](CC(C)C)NC(=O)[C@H](CC(C)C)NC(=O)[C@H](CC(N)=O)NC(=O)[C@H](CC(N)=O)NC(=O)[C@H](CCC(N)=O)NC(=O)[C@H](CCC(N)=O)NC(=O)[C@H](CCC(N)=O)NC(=O)[C@@H](NC(=O)[C@@H](NC(=O)CNC(=O)[C@H](CO)NC(=O)[C@H](CC(C)C)NC(=O)[C@H](CC(C)C)NC(=O)[C@H](CCC(N)=O)NC(=O)[C@H](CCCNC(=N)N)NC(=O)[C@H](C)NC(=O)[C@H](CCC(N)=O)NC(C)=O)[C@@H](C)CC)C(C)C)[C@@H](C)CC)[C@@H](C)O)C(C)C)C(=O)N[C@@H](CCCCN)C(=O)N[C@@H](CCC(N)=O)C(=O)N[C@@H](CC(C)C)C(=O)N[C@@H](CCC(N)=O)C(=O)N[C@@H](C)C(=O)N[C@@H](CCCNC(=N)N)C(=O)N[C@H](C(=O)N[C@@H](CC(C)C)C(=O)N[C@@H](C)C(=O)N[C@H](C(=O)N[C@@H](CCC(=O)O)C(=O)N[C@@H](CCCNC(=N)N)C(=O)N[C@@H](Cc1ccc(O)cc1)C(=O)N[C@H](C(=O)N[C@@H](CCCCN)C(=O)N[C@@H](CC(=O)O)C(=O)N[C@@H](CCC(N)=O)C(N)=O)[C@@H](C)CC)C(C)C)[C@@H](C)CC` [SEQ ID NO:40], for which, in series [1], the HR2 peptide binding entry is given as “Yes”. Further, in series [2], the Oligomerization entry is given as “Trimer*”. In series [3], this compound yielded a Helicity of 53%. Further, in the series on HIV IIIB, the “Antiviral activity against HIV IIIB IC50” value amounted to 0.41 µg/mL and the “Antiviral activity against HIV IIIB IC90” value came out at 1.84 µg/mL. Moreover, in series [4], the “Stability Tm” value was found to be 62 °C.
Take `CC[C@H](C)[C@H](NC(=O)[C@H](Cc1ccc(O)cc1)NC(=O)[C@H](CCCNC(=N)N)NC(=O)[C@H](CCC(=O)O)NC(=O)[C@H](CC(C)C)NC(=O)[C@H](C)NC(=O)[C@H](CC(C)C)NC(=O)[C@@H](NC(=O)[C@H](CCCNC(=N)N)NC(=O)[C@H](C)NC(=O)[C@H](CCC(N)=O)NC(=O)[C@H](CC(C)C)NC(=O)[C@H](CCC(N)=O)NC(=O)[C@H](CCCCN)NC(=O)[C@@H](NC(=O)CNC(=O)[C@H](Cc1c[nH]c2ccccc12)NC(=O)[C@@H](NC(=O)[C@H](CC(C)C)NC(=O)[C@H](CC(C)C)NC(=O)[C@H](CCC(N)=O)NC(=O)[C@@H](NC(=O)[C@H](CC(C)C)NC(=O)[C@H](Cc1c[nH]cn1)NC(=O)[C@H](CCC(N)=O)NC(=O)[C@@H](NC(=O)[C@H](C)NC(=O)[C@H](CCC(=O)O)NC(=O)[C@H](CC(C)C)NC(=O)[C@H](C)NC(=O)[C@H](CCCNC(=N)N)NC(=O)[C@H](CC(C)C)NC(=O)[C@@H](NC(=O)[C@H](CC(N)=O)NC(=O)[C@H](CC(N)=O)NC(=O)[C@H](CCC(N)=O)NC(=O)[C@H](CCC(N)=O)NC(=O)[C@H](CCC(N)=O)NC(=O)[C@@H](NC(=O)[C@H](CC(C)C)NC(=O)CNC(=O)[C@H](CO)NC(=O)[C@@H](NC(=O)[C@H](CC(C)C)NC(=O)[C@H](CCC(N)=O)NC(=O)[C@H](CCCNC(=N)N)NC(=O)[C@H](C)NC(=O)[C@H](CCC(N)=O)NC(C)=O)C(C)C)C(C)C)[C@@H](C)CC)[C@@H](C)O)C(C)C)C(C)C)C(C)C)C(C)C)C(=O)N[C@@H](CCCCN)C(N)=O` [SEQ ID NO:41]: the HR2 peptide binding entry in series [1] was “Yes”. Also, in series [2], the Oligomerization result was “Aggregates”. The compound further yielded a Helicity in series [3] of 73%. In the series with HIV IIIB, the “Antiviral activity against HIV IIIB IC50” value stood at 3.892 µg/mL and the “Antiviral activity against HIV IIIB IC90” value turned out to be 14.53 µg/mL. For the same compound, the “Stability Tm” value in series [4] is greater than 97 °C.
